Data reported in PMC10478095, “Mycobacterium tuberculosis PE/PPE proteins enhance the production of reactive oxygen species and formation of neutrophil extracellular traps” (Frontiers in Immunology, 2023).

Biological target: T1, PPE26 (Rv1789) from Mycobacterium tuberculosis (Mycobacterium tuberculosis H37Rv, UniProt Q79FK6 1-393)
T1 sequence: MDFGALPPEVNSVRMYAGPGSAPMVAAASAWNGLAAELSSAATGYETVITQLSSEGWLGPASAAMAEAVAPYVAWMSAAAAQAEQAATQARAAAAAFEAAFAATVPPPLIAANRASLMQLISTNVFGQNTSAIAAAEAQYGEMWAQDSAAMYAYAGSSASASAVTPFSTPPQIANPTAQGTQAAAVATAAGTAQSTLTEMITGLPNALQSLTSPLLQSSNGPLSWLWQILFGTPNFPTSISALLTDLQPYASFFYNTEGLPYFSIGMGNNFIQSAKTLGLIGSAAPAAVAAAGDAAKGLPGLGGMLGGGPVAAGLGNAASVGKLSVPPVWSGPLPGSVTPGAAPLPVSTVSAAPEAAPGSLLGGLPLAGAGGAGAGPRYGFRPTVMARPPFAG
Test: BLI
Details: both partners purified

B1: PE31 (Rv3477) from Mycobacterium tuberculosis (natural protein)
chain: MSFTAQPEMLAAAAGELRSLGATLKASNAAAAVPTTGVVPPAADEVSLLLATQFRTHAATYQTASAKAAVIHEQFVTTLATSASSYADTEAANAVVTG
Question: With B1 as the binder, how does the Kd read?
Answer: The Kd was 2700 ± 620 nM.
